Laboratory results published in US6677310B1, “Ring-expanded nucleosides and nucleotides” (Nabi, priority 1999, dated 2004).

Test system: Hepatitis B virus (HBV)
Assay: Anti-HBV assay in 2.2.15 cells (virion DNA, HBV RI)
Format: cell-based
Conditions: for Selectivity Index Virion: virion DNA
Procedure: The anti-HBV assays were performed according to the published protocol of Korba and Milman, (Korba, B. E.; Milman, G. Antiviral Res., 15, 217 1991), using cultures of 2.2.15 cells. In brief, the assay consisted of (a) seeding the chronically HBV-producing human liver cells (Acs et al. Proc. Nat. Acad. Sci., 84, 464 1987) into 24-well tissue culture plates, and growing to confluence, (b) adding test compounds daily for a continuous 9-day period, harvesting culture media after day 9 and (c) lysing treated cells 24 hours following day 9 of treatment for the analysis of extracellular virion DNA and intracellular HBV genomic forms.
Anti-HBV activity and the toxicity against confluent 2.2.15 cells were determined by the previously described procedure (Korba, B. E., et al. Antivir. Res., 19:55-70, 1992; Korba, B. E., et al. Antivir. Res., 15:217-228, 1991). Briefly, confluent cultures of HBV transfected 2.2.15 cells were maintained on either 96-well or 24-well flat-bottomed tissue culture plates in RPMI 1640 medium with 2% fetal bovine serum (FBS). The cells were treated with test compounds daily for nine consecutive days. The culture media were harvested on day 9 to quantify the amount of virion DNA. On day 10, the cells were lysed to quantify the amount of intracellular HBV replicative intermediates (RI). The quantification of virion DNA and the HBV RI were done by blot hybridization methods (Korba, B. E., et al. Antivir. Res., 19:55-70, 1992; Korba, B. E., et al. Antivir. Res., 15:217-228, 1991). Cellular toxicity against separate cultures of confluent 2.2.15 cells was measured after treatment with the compounds for nine days under identical culture conditions as those used for the antiviral assay (Korba, B. E., et al. Antivir. Res., 19:55-70, 1992). Uptake of neutral red dye by treated cells was compared with dye uptake by untreated control cells (Korba, B. E., et al. Antivir. Res., 19:55-70, 1992).

Compound	TI (2.2.15 cells, Example 13)	Selectivity Index HBV RI (CC50/EC50 ratio, HBV RI)	Selectivity Index Virion (CC50/EC50 ratio)
N=c1[nH]c(=O)c2ncn([C@@H]3O[C@H](CO)[C@@H](O)[C@H]3O)c2c(=O)[nH]1 [Compound 14-1, 6-Imino-6H-1-β-D-ribofuranosyl-4,5,7,8-tetrahydroimidazo[4,5-e][1,3]diazepine-4,8-dione]	> 14,000	4018	18526
N=c1nc(N)c2ncn([C@@H]3O[C@H](CO)[C@@H](O)[C@H]3O)c2c(N)n1 [Compound 14-2, 4,8-Diamino-6H-6-imino-1-β-D-ribofuranosylimidazo[4,5-e][1,3]diazepine]			1262
